A mixed list of measured activities; the numbers were collected in NIAID ChemDB.

Common to all: tests on isolated targets

An empty or dashed field is not shown. Rows are shuffled and stem from different studies. Two numbers with a dash give a range or band. Inhibition is in % at the dose shown (toxicity tests: loss of growth or viability). ICn: concentration for n% inhibition.

compound,dose,protein,organism,method,measure,strain,value
O=C1c2c(O)c(=O)c(-c3ccncc3)cn2CCN1Cc1cccc(Cl)c1F,,Integrase,HIV-1,ELISA,IC50,,<0.01 µM
NC(=O)c1ccc(-c2cncc(N3CCN(c4ccccc4)CC3)n2)cc1,,UL97 kinase,Cytomegalovirus,,IC50,,<1 µM
COc1ccc(-c2cc(-c3cccc(Cl)c3)nc3cc(C(=O)O)nn23)cc1Cl,,RNA-dependent RNA polymerase,Hepatitis C virus,,IC50,,>10 µM
Cc1cc(C)cc(-c2cncc(N3CCN(c4ccc(F)cc4)CC3)n2)c1,,UL97 kinase,Cytomegalovirus,,IC50,,<100 µM
CCOC(=O)c1cnn2c(-c3ccccc3Cl)cc(-c3ccc(F)cc3)nc12,,RNA-dependent RNA polymerase,Hepatitis C virus,,IC50,,>10 µM
O=C1c2c(O)c(=O)c(-c3nccs3)cn2CCN1CCCCc1ccccc1,,Integrase,HIV-1,ELISA,IC50,,0.01–0.1 µM
OCc1ccc(-c2cncc(N3CCN(c4cccc(C(F)(F)F)c4)CC3)n2)cc1,,UL97 kinase,Cytomegalovirus,,IC50,,<100 µM
O=C1c2c(O)c(=O)c(-c3nccs3)cn2CCN1CCCc1ccc(Cl)cc1,,Integrase,HIV-1,ELISA,IC50,,0.01–0.1 µM
FC(F)(F)c1ccc(-c2cncc(N3CCN(c4cnccn4)CC3)n2)cc1,,UL97 kinase,Cytomegalovirus,,IC50,,<10 µM
O=c1c(-c2ccco2)cn2ccn(Cc3cccc(Cl)c3)c(=O)c2c1O,,Integrase,HIV-1,ELISA,IC50,,<0.01 µM
CC(=O)c1ccc(N2CCN(c3cncc(-c4cccc(F)c4)n3)CC2)cc1,10 µM,UL97 kinase,Cytomegalovirus,,inhibition,,>15%
COC(=O)c1cc(=O)c(O)c2n1CCN(Cc1ccc(Cl)c(Cl)c1)C2=O,,Integrase,HIV-1,ELISA,IC50,,0.01–0.1 µM
O=C(NS(=O)(=O)c1ccccc1)c1cnn2c(C3CCCCC3)c(-c3ccc(OCc4ccccc4)cc3)cnc12,,RNA-dependent RNA polymerase,Hepatitis C virus,,IC50,,1–10 µM
Nc1nc(N)c2c(n1)CCC(Cc1ccc(Cl)c(Cl)c1)C2,,Dihydrofolate reductase,Cryptosporidium parvum,,IC50,TYPE 2,0.065 µM
O=C(O)c1cnn2c(-c3cccc(-c4ccccc4Oc4ccccc4)c3)ccnc12,,RNA-dependent RNA polymerase,Hepatitis C virus,,IC50,,1–10 µM
CCCc1cccc(-c2nc3nc(N)nc(N)c3nc2-c2cccc(CCC)c2)c1,,Dihydrofolate reductase,Cryptosporidium parvum,,IC50,TYPE 2,>10 µM
O=C(O)c1cnn2c(-c3ccc(OCc4ccccc4)cc3)c(-c3ccccc3)cnc12,,RNA-dependent RNA polymerase,Hepatitis C virus,,IC50,,>10 µM
COc1cc(NCc2csc3nc(N)nc(N)c23)cc(OC)c1OC,,Dihydrofolate reductase,Cryptosporidium parvum,,IC50,TYPE 2,>10 µM
COc1ccc(-c2cncc(N3CCN(c4ccc(C)cc4C)CC3)n2)cc1OC,10 µM,UL97 kinase,Cytomegalovirus,,inhibition,,>15%
CC(C)NC(=O)c1cn2ccn(Cc3cccc(Cl)c3)c(=O)c2c(O)c1=O,,Integrase,HIV-1,ELISA,IC50,,0.01–0.1 µM
Clc1cccc(N2CCN(c3cncc(-c4ccoc4)n3)CC2)c1,1 µM,UL97 kinase,Cytomegalovirus,,inhibition,,<50%
O=C(NCC(F)(F)F)c1cn2ccn(Cc3cccc(Cl)c3)c(=O)c2c(O)c1=O,,Integrase,HIV-1,ELISA,IC50,,0.01–0.1 µM
Fc1ccc(C(F)(F)F)cc1COc1ccc(-c2cnc3c(-c4nn[nH]n4)cnn3c2C2CCCCC2)cc1,,RNA-dependent RNA polymerase,Hepatitis C virus,,IC50,,1–10 µM
Cc1cc(C)cc(-c2cncc(N3CCN(c4cccc(C)c4)C(C)C3)n2)c1,,UL97 kinase,Cytomegalovirus,,IC50,,<100 µM
CC(C)S(=O)(=O)Cc1cc(=O)c(O)c2n1CCN(Cc1ccc(Cl)c(Cl)c1)C2=O,,Integrase,HIV-1,ELISA,IC50,,0.01–0.1 µM
O=C(O)c1cnn2c(C3CCCCC3)c(-c3ccc(Cc4ccccc4)cc3)cnc12,,RNA-dependent RNA polymerase,Hepatitis C virus,,IC50,,1–10 µM
COc1ccc(-c2cncc(N3CCN(c4ccncc4)CC3)n2)cc1OC,,UL97 kinase,Cytomegalovirus,,IC50,,<1 µM
COc1cccc(-c2cc(-c3ccccc3)nc3cc(C(=O)O)nn23)c1,,RNA-dependent RNA polymerase,Hepatitis C virus,,IC50,,>10 µM
COC(=O)c1cn(Cc2ccc(Cl)c(Cl)c2)c(=O)c2c(O)c(=O)ccn12,,Integrase,HIV-1,ELISA,IC50,,0.01–0.1 µM
COc1ccc(CC2CCc3nc(N)nc(N)c3C2)cc1,,Dihydrofolate reductase,Cryptosporidium parvum,,IC50,TYPE 1,1.1 µM

The last 3 rows once more:

compound | dose | protein | organism | method | measure | strain | value
COc1cccc(-c2cc(-c3ccccc3)nc3cc(C(=O)O)nn23)c1 |  | RNA-dependent RNA polymerase | Hepatitis C virus |  | IC50 |  | >10 µM
COC(=O)c1cn(Cc2ccc(Cl)c(Cl)c2)c(=O)c2c(O)c(=O)ccn12 |  | Integrase | HIV-1 | ELISA | IC50 |  | 0.01–0.1 µM
COc1ccc(CC2CCc3nc(N)nc(N)c3C2)cc1 |  | Dihydrofolate reductase | Cryptosporidium parvum |  | IC50 | TYPE 1 | 1.1 µM